Data published in US12029777B2, “Serine proteinase inhibitors: Serp-1 and Serp-1 RCL-derived peptides effect on microbiome composition and uses thereof” (ARIZONA BOARD OF REGENTS ON BEHALF OF ARIZONA STATE …, priority 2019, dated 2024).

Tested on: gut bacterial microbiome
Experiment: 16S rRNA gene amplicon sequencing of large intestine, 3 days post MHV-68 infection
Type: in vivo, mice
Details: for relative abundance of Serp-1- or S-7-associated ASVs in antibiotic pre-treated mice: +Abx compared to No Abx; for diversity of microbiota (Shannon Index), mean / association of ASV4 with treatment: absence of antibiotics; for diversity of microbiota (Shannon Index), mean: 3 days post-infection, saline mean=0.385; for association of ASV4 with treatment: compared to saline treated mice

Molecule	relative abundance of Serp-1- or S-7-associated ASVs in antibiotic pre-treated mice	diversity of microbiota (Shannon Index), mean	association of ASV4 with treatment
GTTASSDTAITLIPR (Reactive Center Loop Polypeptide sequence of for a serine protease inhibitor) [S-7]	decreased	0.862	consistently associated
Serp-1: secreted myxomavirus-derived serine protease inhibitor (serpin), purified protein, SEQ ID NO: 1 (protein, Serp-1 recombinant polypeptide) MKYLVLVLCLTSCACRDIGLWTFRYVYNESDNVVFSPYGLTSALSVLRIAAGGNTKREIDVPESVVEDSDAFLALRELFVDASVPLRPEFTAEFSSRFNTSVQRVTFNSENVKDVINSYVKDKTGGDVPRVLDASLDRDTKMLLLSSVRMKTSWRHVFDPSFTTDQPFYSGNVTYKVRMMNKIDTLKTETFTLRNVGYSVTELPYKRRQTAMLLVVPDDLGEIVRALDLSLVRFWIRNMRKDVCQVVMPKFSVESVLDLRDALQRLGVRDAFDPSRADFGQASPSNDLYVTKVLQTSKIEADERGTTASSDTAITLIPRNALTAIVANKPFMFLIYHKPTTTVLFMGTIT	decreased	1.270	consistently associated
